Test system: mitochondria DNA
Format: cell-based
Conditions: CEM cells
Description: The CEM cells (5×10^4) cells were collected and freeze-thawed three times. The cell lysate was incubated with RNase (10 μg/ml) at 37° C. for 30 minutes. The sample was treated with proteinase K (100 μg/ml) at 55° C. for 1 hour. A 0.8 volume of supersaturated Nal (2.5 gNaI in 1 ml hot water) was added to the sample and heated at 90° C. for 10 minutes. The DNA was immobilized on nitrocellulose paper by using a slot blot apparatus (Schleicher & Schuell, Keene, NH). The mtDNA on the nitrocellulose paper was detected with a mtDNA specific probe as described previously (Chen, C. H., Cheng, Y. C., “relayed Cytotoxicity and Selective Loss of Mitochondria DNA in Cells Treated with the Anti-Human Immunodeficiency Virus Compound 2′,3′-Dideoxycytidine,” J. Biol. Chem. 264: 11934-11937, 1989).
Mitochondria DNA content was measured by slot blot hybridization analysis. […] Thus, D4C would be expected to have a mitochondria effect before the anti-HBV effect was achieved as the same phenomenon observed in treatment with ddC.

SMILES | ED30/MtID30
Nc1ccn([C@H]2C[C@H](F)[C@@H](CO)O2)c(=O)n1 [3′-FddC, 3′-fluoro-2′,3′-dideoxycytidine] | 409
Nc1ccn([C@H]2C=C[C@@H](CO)O2)c(=O)n1 [D4C, 2′,3′-didehydro-2′,3′-dideoxycytidine] | 11
Nc1ccn([C@H]2CC[C@@H](CO)O2)c(=O)n1 [ddC, 2′,3′ dideoxycytidine] | 454
